Anti-infective test results gathered from many reports (values: NIAID ChemDB through PubChem).

All rows: growth or infection tests; agent: HIV-1; read by: p24; endpoint: EC50

An empty or dashed field is not shown. Lines come from different laboratories, so protocols vary. ECn is the concentration giving n% inhibition of infection, replication or growth.

{"structure": "COc1ccc2c(c1)C1=C(CC2)C(=O)NCCN1Cc1ccc(C)cc1", "cells": "OM-10.1", "value": "0.5 µM"}
{"structure": "O=C(NCc1ccc(F)cc1)c1nc2n(c(=O)c1O)CCN(Cc1ccccc1)C2", "cells": "MT-4", "value": "<50 µM"}
{"structure": "CC(C)CN(C[C@@H](O)[C@H](Cc1ccccc1)NC(=O)OC(C)(C)C)S(=O)(=O)c1ccccc1F", "cells": "CEM", "strain or isolate": "IIIB", "value": "<10 µM"}
{"structure": "CCN1c2ncc(CCOc3ccc(CCC(=O)O)c4ccccc34)cc2C(=O)N(C)c2ccc(F)nc21", "cells": "C8166", "strain or isolate": "WT", "value": "<0.1 µM"}
{"structure": "CSc1ccc2sc3c(c2c1)N(Cc1cccc([N+](=O)[O-])c1)CCNC3=O", "cells": "OM-10.1", "value": "<0.08 µM"}
{"structure": "O=C1c2ccccc2N(Cc2cccc3ccccc23)S(=O)(=O)N1Cc1ccccc1", "cells": "MT-4", "strain or isolate": "IIIB", "value": ">125 µM"}
{"structure": "CC[C@H](C)[C@H](NC(=O)c1cnc2ccccc2n1)C(=O)N[C@@H](Cc1ccccc1)[C@H](O)CN(CC(C)C)S(=O)(=O)c1ccc(F)c(NC(C)=O)c1", "cells": "CEM", "strain or isolate": "IIIB", "value": "<10 µM"}
{"structure": "CC#CCN1c2ccccc2C(=O)N(Cc2ccccc2)S1(=O)=O", "cells": "CEM + CEM-SS", "strain or isolate": "IIIB", "value": ">10 µM"}
{"structure": "CC(C)(C)OC(=O)N[C@@H](Cc1ccccc1)[C@H](O)CN(CC1CCCC1)S(=O)(=O)c1ccc(Cl)c(Cl)c1", "cells": "CEM", "strain or isolate": "IIIB", "value": "<10 µM"}
{"structure": "C=C(C)CN1CCNC(=O)c2sc3ccc(OCCC)cc3c21", "cells": "OM-10.1", "value": "<0.08 µM"}
{"structure": "CCCCCCCCCCCCCCCCCCOCCOP(=O)(O)CO[C@H](CO)Cn1cnc2c(N)ncnc21", "cells": "MT-2", "changes": "RT-M184V", "value": "0.00004 µM"}
{"structure": "COC(=O)[C@H](C)NP(=O)(OC[C@@H]1C=C[C@H](n2cc(C)c(=O)[nH]c2=O)O1)Oc1c(OC)cccc1OC", "cells": "PBMC", "strain or isolate": "RTMDR", "changes": "RT M41L L74V T215Y V106N", "value": "1.104 µM"}
{"structure": "CC1(C)c2nc(C(=O)NCc3ccc(F)cc3)c(O)c(=O)n2CCN1CCN1CCOCC1", "cells": "MT-4", "value": "<1 µM"}
{"structure": "CCCCCCCC/C=C\\CCCCC(CCC(=O)O)NC1c2ccc3cc4c5c6c(cc7ccc8cc9cc1c1c9c9c8c7c6c9c6c1c2c3c56)C4", "cells": "PBMC", "value": "10 µM"}
{"structure": "COC(=O)[C@H](C)NP(=O)(OC[C@@H]1C=C[C@H](n2cc(C)c(=O)[nH]c2=O)O1)Oc1ccc(Br)cc1Cl", "cells": "PBMC", "strain or isolate": "A17", "changes": "RT-Y181C", "value": "0.031 µM"}
{"structure": "O=C1NCCN(Cc2ccccc2F)c2c1sc1ccc([N+](=O)[O-])cc21", "cells": "OM-10.1", "value": "<0.002 µM"}
{"structure": "O=C1c2ccccc2N(Cc2ccc(Cl)c(Cl)c2)S(=O)(=O)N1Cc1ccccc1", "cells": "MT-4", "strain or isolate": "IIIB", "value": ">125 µM"}
{"structure": "NC(=O)C[C@H](NC(=O)CNC1c2ccc3cc4c5c6c(cc7ccc8cc9cc1c1c9c9c8c7c6c9c6c1c2c3c56)C4)C(=O)O", "cells": "PBMC", "value": "140 µM"}
{"structure": "C=C1c2cc(CCOc3ccc(NS(C)(=O)=O)c4ccccc34)cnc2N(CC)c2ncccc2N1C", "cells": "C8166", "changes": "RT-K103N Y181C", "value": "<0.1 µM"}
{"structure": "C=C(COC)COC(=O)N[C@@H](Cc1ccccc1)[C@H](O)CN(CC1CCCC1)S(=O)(=O)c1ccc(OC)cc1", "cells": "CEM", "strain or isolate": "IIIB", "value": "<10 µM"}
{"structure": "CCN1c2ncc(CCOc3ccc(CC(=O)O)c4c3CCCC4)cc2C(=O)N(C)c2ccc(F)nc21", "cells": "C8166", "strain or isolate": "WT", "value": "<0.1 µM"}
{"structure": "OCCC#Cc1nc(-c2ccc(F)cc2)c(-c2ccncc2)n1CCCc1ccccc1", "cells": "PBMC", "strain or isolate": "89.6", "value": "<1 µM"}
{"structure": "Cn1nncc1CN1CCn2c(nc(C(=O)NCc3ccc(F)cc3)c(O)c2=O)C1(C)C", "cells": "MT-4", "value": "<1 µM"}
{"structure": "Cc1ccc(-c2ccc3c(c2)C=C(C(=O)Nc2ccc(C[N+](C)(C)C4CCOCC4)cc2)CCC3)cc1", "cells": "PBMC", "strain or isolate": "CM4 CLADE C", "value": "<1 µM"}
{"structure": "CCc1cc(=O)c2ccc3c(c2o1)[C@@H](OC(=O)C12CCC(C)(C(=O)O1)C2(C)C)[C@@H](OC(=O)C12CCC(C)(C(=O)O1)C2(C)C)C(C)(C)O3", "cells": "MT-4", "strain or isolate": "RTMDR1", "changes": "RT-M41L L74V V106A T215Y", "value": "0.06 µM"}
{"structure": "COC(=O)[C@H](C)NP(=O)(OC[C@@H]1C=C[C@H](n2cc(C)c(=O)[nH]c2=O)O1)Oc1ccccc1Br", "cells": "PBMC", "strain or isolate": "A17", "changes": "RT-Y181C", "value": "0.042 µM"}
{"structure": "CCOC(=O)N[C@@H](Cc1ccccc1)[C@H](O)CN(CC(C)C)S(=O)(=O)c1ccc(Cl)c(Cl)c1", "cells": "CEM", "strain or isolate": "IIIB", "value": "<10 µM"}
{"structure": "O=C1NCCN(Cc2ccccc2)c2c1sc1ccc(F)cc21", "cells": "OM-10.1", "value": "0.01 µM"}
{"structure": "CN(C)C(=O)C(=O)N(C)C1CN(CC2CC2)CCn2c1nc(C(=O)NCc1ccc(F)cc1)c(O)c2=O", "cells": "MT-4", "value": "<1 µM"}
{"structure": "C=C(C)CN1CCn2ccnc2-c2sc3ccc([N+](=O)[O-])cc3c21", "cells": "OM-10.1", "value": "3.8 µM"}
{"structure": "Nc1nccc2c1ncn2[C@@H]1O[C@H](CO)[C@@H](O)[C@H]1O", "cells": "PBMC", "strain or isolate": "14A-6/89 POST-AZT", "value": "0.059 µM"}
{"structure": "Cc1cc(CN2CCn3c(nc(C(=O)NCc4ccc(F)cc4)c(O)c3=O)C2(C)C)on1", "cells": "MT-4", "value": "<1 µM"}
{"structure": "Nc1nccc2c1ncn2[C@@H]1C=C(CO)[C@@H](O)[C@H]1O", "cells": "PBMC", "strain or isolate": "18190 unpaired", "value": "0.0058 µM"}
{"structure": "CC(=O)N(CC1CCCCC1)C1CN(C)CCn2c1nc(C(=O)NCc1ccc(F)cc1)c(O)c2=O", "cells": "MT-4", "value": "<1 µM"}
{"structure": "O=C1N[C@H](COC(=O)N[C@@H](Cc2ccccc2)[C@H](O)CN(CC2CCCC2)S(=O)(=O)c2ccc(Cl)cc2)CO1", "cells": "CEM", "strain or isolate": "IIIB", "value": "<1 µM"}
{"structure": "CCN1c2ncc(CCOc3ccc(C(=O)O)c4c3CCN(C(=O)N(C)C)C4)cc2C(=O)N(C)c2cccnc21", "cells": "C8166", "changes": "RT-K103N Y181C", "value": "<0.1 µM"}
{"structure": "CCCCCCCCCCCCCCCCOCCCOP(=O)(O)CO[C@H](CO)Cn1cnc2c(N)ncnc21", "cells": "MT-2", "changes": "RT-K103N", "value": "0.02 µM"}
{"structure": "CCN1c2ncc(CCOc3ccc(C(=O)O)c4c3CCCC4)cc2C(=O)N(C)c2ccc(OC)nc21", "cells": "C8166", "strain or isolate": "WT", "value": "<0.1 µM"}
{"structure": "CC(C)CN(C[C@@H](O)[C@H](Cc1ccccc1)NC(=O)OCc1ccccc1)S(=O)(=O)c1ccc2nonc2c1", "cells": "CEM", "strain or isolate": "IIIB", "value": "<10 µM"}
{"structure": "O=C1c2ccccc2N(CC2CCCCC2)S(=O)(=O)N1Cc1ccccc1", "cells": "MT-4", "strain or isolate": "IIIB", "value": "8.5 µM"}
{"structure": "CC(C)CN(C[C@@H](O)[C@H](Cc1ccccc1)NC(=O)O[C@H]1CO[C@H]2OCC[C@H]21)S(=O)(=O)c1ccc2c(c1)OCO2", "cells": "PHA-PBM", "strain or isolate": "MDR/JSL", "value": "0.006 µM"}
{"structure": "CC(C)CN(C[C@@H](O)[C@H](Cc1ccccc1)NC(=O)O[C@H]1CCOC1)S(=O)(=O)c1cccc2nonc12", "cells": "CEM", "strain or isolate": "IIIB", "value": "<10 µM"}
{"structure": "CCN1c2ncc(CCOc3ccc(/C=C(\\C)C(=O)O)c4ccccc34)cc2C(=O)N(C)c2cccnc21", "cells": "C8166", "strain or isolate": "WT", "value": "<0.1 µM"}
{"structure": "O=S1(=O)N=C(OCc2ccccc2)c2ccccc2N1Cc1ccc(Cl)c(Cl)c1", "cells": "MT-4", "strain or isolate": "IIIB", "value": ">125 µM"}
{"structure": "COc1ccc2ccc3c(c2c1)N(Cc1ccccc1)CCNC3=O", "cells": "OM-10.1", "value": "<0.4 µM"}
{"structure": "CC(C)=CCOc1cc(NC(=S)c2ccoc2C)ccc1Cl", "cells": "CEM + CEM-SS", "strain or isolate": "NL4-3", "changes": "RT-V108I", "value": "0.01 µM"}
{"structure": "CC(=O)Nc1ccc(S(=O)(=O)N(CC(C)C)C[C@@H](O)[C@H](Cc2ccccc2)NC(=O)[C@@H](NC(=O)OCc2ccncc2)C(C)C)cc1", "cells": "CEM", "strain or isolate": "IIIB", "value": "<1 µM"}
{"structure": "COc1ccc2sc3c(c2c1)SCCn1cnnc1-3", "cells": "OM-10.1", "value": "2.9 µM"}

A second listing of 7 rows from above:

| structure | cells | strain or isolate | changes | value |
|---|---|---|---|---|
| CC#CCN1c2ccccc2C(=O)N(Cc2ccccc2)S1(=O)=O | CEM + CEM-SS | IIIB |  | >10 µM |
| Nc1nccc2c1ncn2[C@@H]1O[C@H](CO)[C@@H](O)[C@H]1O | PBMC | 14A-6/89 POST-AZT |  | 0.059 µM |
| CC(C)=CCOc1cc(NC(=S)c2ccoc2C)ccc1Cl | CEM + CEM-SS | NL4-3 | RT-V108I | 0.01 µM |
| O=C1c2ccccc2N(CC2CCCCC2)S(=O)(=O)N1Cc1ccccc1 | MT-4 | IIIB |  | 8.5 µM |
| Nc1nccc2c1ncn2[C@@H]1C=C(CO)[C@@H](O)[C@H]1O | PBMC | 18190 unpaired |  | 0.0058 µM |
| COc1ccc2sc3c(c2c1)SCCn1cnnc1-3 | OM-10.1 |  |  | 2.9 µM |
| OCCC#Cc1nc(-c2ccc(F)cc2)c(-c2ccncc2)n1CCCc1ccccc1 | PBMC | 89.6 |  | <1 µM |